Measurements reported in article PMC3151279, “Cross-Reactivity of Anthrax and C2 Toxin: Protective Antigen Promotes the Uptake of Botulinum C2I Toxin into Human Endothelial Cells” (2011).

Target: C2II channel, trypsin-activated binding component of Clostridium botulinum C2 toxin (Clostridium botulinum)

## anthrax edema factor (from UniProt P40136 34-800)
  Ka: 7.7e+07 M⁻¹

## anthrax lethal factor (from UniProt P15917 34-809)
  Ka: 2e+07 M⁻¹
  Kd: 49.9 nM
